A mixed list of measured activities; the numbers were collected in NIAID ChemDB.

All rows: growth or infection tests; organism: Candida glabrata; read-out: MIC

Neighbouring rows are from separate reports.

compound	strain	read by	setting	value
O=C(CCn1ccnc1)c1cccc2ccccc12	RTCC 1040	broth dilution	-	64 µg/mL
C[C@@H]1CC(=O)N(c2ccc(Br)cc2)C1=O	CCC 115-2000	broth dilution / turbidity	-	62.5 µg/mL
Nc1scc2c1c(=O)oc1ccccc12	IP35	broth dilution	-	32 µg/mL
COc1ccccc1OC/C(=N/O)c1ccccc1	ATCC 90030	broth dilution	48 h	>125 µg/mL
O=C(CCn1ccnc1)c1cccc(C(O)c2ccc(Br)cc2)c1	RTCC 1054	broth dilution	-	16 µg/mL
CCCCCCCCCCCC[n+]1cccc2ccccc21	20/I	broth dilution	48 h	0.01562 µg/mL
CC1C(=O)N(Cc2ccccc2)C(=O)C1C	CCC 115-2000	broth dilution / turbidity	-	125 µg/mL
C/C(=N\NC([S-])=Nc1ccccc1F)c1ccccn1.CCC[CH2][Sn+3]	ATCC 90030	broth dilution	-	3.74 µM
O=C(CCn1ccnc1)c1cccc(C(O)c2ccc(Cl)c(Cl)c2)c1	RTCC 1054	broth dilution	-	16 µg/mL
CC(C)CC1NC(=O)CC(CCCCCCCCC(C)O)OC(=O)C(CC(C)C)NC(=O)C(CC(C)C)NC(=O)C(CC(C)C)NC(=O)C(C(C)C)NC(=O)C(CC(=O)O)NC(=O)C(CC(C)C)NC1=O	MTCC 3019	absorbance	-	4 µg/mL
Cc1coc2c1C(=O)[C@@H]1[C@](C)([C@H](O)CC[C@@]1(C)O)[C@@H]2O	ATCC 90030	broth dilution	-	>256 µg/mL
CC(=O)[C@]1(O)Cc2c(O)c3c(c(O)c2[C@@H](O[C@H]2C[C@H](N)[C@H](O)[C@H](C)O2)C1)C(=O)c1ccccc1C3=O	ATCC 90030	-	-	3.63 µM
CCCc1ccc(NS(=O)(=O)c2ccc(CN(C)CC(O)(Cn3cncn3)c3ccc(F)cc3F)cc2)cc1	468	resazurin	-	1.6 µg/mL
CCCCCCCCCCCC(=O)NCCCCN	ATCC 90030	broth dilution	-	32 µg/mL
CC1=C2C[C@@H]3[C@](C)(CCC[C@@]3(C)O)C[C@]2(O)OC1=O	ATCC 90030	broth dilution	-	>256 µg/mL
CC(=O)N1CCN(c2ccc(OC[C@H]3CO[C@](Cn4ccnc4)(c4ccc(Cl)cc4Cl)O3)cc2)CC1	ATCC 36583	broth dilution	-	50 µg/mL
CC(C)S(=O)(=O)N1CCN(c2cnn(-c3cc(F)cc(F)c3)c(=O)c2OC2CCC(F)C2)CC1	C624	broth dilution	-	0.03 µg/mL
C[C@@H](c1ncncc1F)[C@](O)(Cn1cncn1)c1ccc(F)cc1F	ATCC 66032	broth dilution	-	1 µg/mL
CC1=C2C3=C4[C@](C)([C@@H]5C[C@@H]5[C@@]4(O)C[C@@H]4[C@]35OC(=O)C3=C5C[C@H]5[C@](O)(COC(=O)/C(C)=C/COC(=O)CCC(=O)OC3)[C@H]3C[C@H]3[C@]45C)[C@@H](O)[C@]2(O)OC1=O	ATCC 90030	broth dilution	-	>256 µg/mL
CN(Cc1ccc(NS(=O)(=O)c2ccc([N+](=O)[O-])cc2)cc1)CC(O)(Cn1cncn1)c1ccc(F)cc1F	468	resazurin	-	18.3 µg/mL
CCC[CH2][Sn+3].Fc1ccccc1N=C([S-])N/N=C(\c1ccccc1)c1ccccn1	ATCC 90030	broth dilution	-	13.42 µM
CN(Cc1ccc(S(=O)(=O)Nc2ccc([N+](=O)[O-])cc2)cc1)CC(O)(Cn1cncn1)c1ccc(F)cc1F	468	resazurin	-	<0.001 µg/mL
O=P(O)(O)OP(=O)(O)OP(=O)(O)O	H30	broth dilution	-	390 µg/mL
O/N=C(/COc1cccc(F)c1)c1ccccc1	ATCC 90030	broth dilution	48 h	>125 µg/mL
OC(CCn1ccnc1)c1cccc(C(O)c2ccc(Cl)c(Cl)c2)c1	RTCC 1054	broth dilution	-	64 µg/mL
CCCCCCCCCCCCCCC1=NCCCC1	ATCC 90030	-	-	20 µg/mL
C[C@H]1[C@H](O)[C@@H](C)/C=C/C=C/C=C/C=C/C=C/C=C/C=C/[C@H](O[C@@H]2O[C@H](C)[C@@H](O)[C@H](N)[C@@H]2O)C[C@@H]2O[C@](O)(C[C@@H](O)C[C@@H](O)CC[C@H](O)[C@@H](O)C[C@@H](O)CC(=O)O[C@H]1C)C[C@H](O)[C@H]2C(=O)O	-	broth dilution	-	1.56 µg/mL
O=C(/C=C/c1c(Cl)cccc1Cl)c1c[nH]c2ccccc12	ATCC 36583	broth dilution	-	200 µg/mL
O/N=C(\COc1ccccc1)c1ccccc1	ATCC 90030	broth dilution	24 h	>125 µg/mL
CC1=C2C3=C4[C@@](C)(C(=O)[C@]2(O)OC1=O)[C@@H]1C[C@@H]1[C@@]4(O)C[C@@H]1[C@]32OC(=O)C3=C2C[C@H]2[C@](O)(COC(=O)/C(C)=C/COC(=O)CCC(=O)OC3)[C@H]3C[C@H]3[C@]12C	ATCC 90030	broth dilution	-	>256 µg/mL
CCC[CH2][Sn+3].[S-]C(=Nc1ccccc1Cl)N/N=C(\c1ccccc1)c1ccccn1	ATCC 90030	broth dilution	-	26.12 µM
OC(CCn1ccnc1)c1cccc(C(O)c2ccc(Cl)cc2)c1	RTCC 1054	broth dilution	-	>64 µg/mL
CCC(C)CC(C)CCCCCCCCC(=O)N[C@H]1C[C@@H](O)[C@H](NCCN)NC(=O)[C@@H]2[C@@H](O)CCN2C(=O)[C@H]([C@H](O)CCN)NC(=O)[C@H]([C@H](O)[C@@H](O)c2ccc(O)cc2)NC(=O)[C@@H]2C[C@@H](O)CN2C(=O)[C@H]([C@@H](C)O)NC1=O	C624	broth dilution	-	0.03 µg/mL
O=C1C=CC[C@H](/C=C/c2ccccc2)O1	-	broth dilution	-	62.1 µg/mL
O=C(/C=C/c1cc(Cl)ccc1Cl)c1c[nH]c2ccccc12	ATCC 36583	broth dilution	-	200 µg/mL
COc1ccccc1OCC(=O)c1ccccc1	ATCC 90030	broth dilution	48 h	>125 µg/mL
CCOc1ccc2nc3cc(N=C4NC(=O)/C(=C\c5ccc([N+](=O)[O-])cc5)S4)ccc3c(N)c2c1	-	broth dilution	-	500 µg/mL
COc1cc(OC/C(=N/O)c2ccccc2)cc(OC)c1OC	ATCC 90030	broth dilution	24 h	>125 µg/mL
CC(C)S(=O)(=O)Nc1ccc(CN(C)CC(O)(Cn2cncn2)c2ccc(F)cc2F)cc1	468	resazurin	-	14.6 µg/mL
CC1CC(=O)N(c2ccc(F)cc2F)C1=O	CCC 115-2000	broth dilution / turbidity	-	125 µg/mL
COc1cccc2c1C(=O)c1c(O)c3c(c(O)c1C2=O)C[C@@](O)(C(=O)CO)C[C@@H]3O[C@H]1C[C@H](N)[C@@H](O)[C@H](C)O1	ATCC 90030	-	-	>100 µM
COc1ccc(OCC(=O)c2ccccc2)cc1	ATCC 90030	broth dilution	48 h	>125 µg/mL
OC(Cn1cncn1)(Cn1cncn1)c1ccc(F)cc1F	-	agar	-	50–100 µg/mL
O=C(/C=C/c1ccc(Cl)cc1Cl)c1c[nH]c2ccccc12	ATCC 36583	broth dilution	-	200 µg/mL

Blank or dashed fields: not listed here. a–b is a range or a potency band.